US20230227538A1

Biological target: SARS-CoV-2 Spike ectodomain, stabilized prefusion trimer (spike ECD, Spike^S2P) (SARS-CoV-2)
Test: spike ECD-ACE2 binding assay (FIG. 2C)

ACE2 as used in the spike ECD-ACE2 binding assay of FIG. 2C (from UniProt Q9BYF1 18-740) (receptor)
Kd: 44 nM
